Anti-infective test results gathered from many reports (values: NIAID ChemDB through PubChem).

Common to all: toxicity to cultured cells; cell line: MT-4; measure: CC50

CCn: concentration that lowers growth or viability of the cells by n%.

structure	read by	result
Cc1cc(NC(=O)c2ccc(Cl)cc2)ccc1N1C(=O)c2ccc(Cl)cc2C1=O	MTT / absorbance	0.256 µM
CCC1(c2ccccc2)Oc2ccccc2-n2cccc2C1=O	-	3.3 µM
Nc1nc(Cl)nc2c1ncn2[C@@H]1C[C@@H](F)[C@H](CO)O1	-	>10 µM
Cc1cn([C@H]2C[C@H](N=[N+]=[N-])[C@@H](CO)O2)c(=O)[nH]c1=O	MTT / absorbance	>100 µM
COc1cc2c(c(OC)c1CC=C(C)C)C[C@H](c1ccc(O)cc1O)CO2	-	>10 µg/mL
O=C(NCCCCCCNC(=O)c1cc2cc(O)c(O)cc2[nH]1)c1cc2cc(O)c(O)cc2[nH]1	MTT	171 µM
CN(C)C(=O)Oc1nsnc1-c1ccc(Cl)cc1	-	353 µM
CC(=O)Nc1ccc(N2C(=O)c3ccc(Cl)cc3C2=O)c(C)c1	MTT / absorbance	0.334 µM
CN(C)C(=O)Oc1nsnc1-c1ccc(Cl)cc1Cl	-	77 µM
O=C(NCCc1ccc(O)c(O)c1)c1cc2cc(O)c(O)cc2[nH]1	MTT	133 µM
COc1cc(-c2ccc(C#N)cc2)ccc1Oc1nc(Nc2ccc(C#N)cc2)nc2ccsc12	MTT	>263.1 µM
O=c1c(Oc2ccccc2)coc2cc(O)cc(O)c12	-	>100 µg/mL
CCN(CC)C(=O)Oc1nsnc1-c1c(Cl)cccc1Cl	-	314 µM
Cc1ccnc2c1NC(=O)c1cccnc1N2C1CC1	-	155 µM
Cc1cccc(S(=O)(=O)c2c(C(=O)NNCCO)[nH]c3ccc(Cl)cc23)c1	MTT	>100 µM
Nc1nc(Cl)nc2c1ncn2[C@@H]1CC[C@H](CO)O1	-	>10 µM
Nc1nc(N)c2ncn([C@H]3C=C[C@@H](OCP(=O)(O)O)O3)c2n1	-	>100 µM
Cc1cn([C@H]2C[C@H](N=[N+]=[N-])[C@@H](CO)O2)c(=O)[nH]c1=O	-	3.2 µM
Cc1cn([C@@H]2O[C@@H](CO)[C@@H](F)[C@H]2O)c(=O)[nH]c1=O	-	>1000 µM
Cc1ccc(C(=S)Nc2ccc(N3C(=O)c4ccc(Cl)cc4C3=O)c(C)c2)cc1	MTT / absorbance	0.409 µM
CC(C)=CCC/C(C)=C/Cc1cc(-c2cc(=O)c3c(O)cc(O)cc3o2)ccc1O	-	20 µg/mL
c1cc(CN2CCCNCCNCCCNCC2)ccc1CN1CCCNCCNCCCNCC1	MTT	>20 µM
CC(C)[C@H]1C(=O)N[C@H](CO)CCc2ccccc2N1C	-	>10 µg/mL
CCCCNC(=O)Oc1nsnc1-c1c(Cl)cccc1Cl	-	139 µM
COc1c(N2CCN(CC(=O)OC[C@@H]3CC[C@H](n4cnc5c(=O)[nH]cnc54)O3)CC2)c(F)cc2c(=O)c(C(=O)O)cn(C3CC3)c12	MTT	770 µM
Cc1cn(C2C[C@H](N)[C@H](CO)O2)c(=O)[nH]c1=O	-	>1000 µM
NCCCC[C@@H](NC(=O)[C@H](Cc1ccc2ccccc2c1)NC(=O)[C@H](CCCN=C(N)N)NC(=O)[C@@H](N)CCCN=C(N)N)C(=O)N1CCC[C@H]1C(=O)N[C@@H](CCCN=C(N)N)C(=O)O	MTT	>100 µM
O=c1[nH]cnc2c1ncn2[C@H]1CC[C@@H](CO)O1	MTT	>1000 µM
Cc1cc(NS(=O)(=O)C(F)(F)F)ccc1N1C(=O)c2ccc(Cl)cc2C1=O	MTT / absorbance	0.234 µM
COc1c(-c2ccc(O)cc2)oc2cc(O)c(CC=C(C)C)c(O)c2c1=O	-	4.3 µg/mL
Cc1cc(NC(=O)c2ccccc2)ccc1N1C(=O)c2ccc(Cl)cc2C1=O	MTT / absorbance	0.638 µM
Cc1cn([C@H]2C[C@H](F)[C@H](CO)O2)c(=O)[nH]c1=O	-	>1000 µM
CCCCCCCCCCc1ccc2c(c1)N(C)[C@H](C(C)C)C(=O)N[C@@H](CO)C2	-	5 µg/mL
Cc1cc(NC(=S)c2ccccc2)ccc1N1C(=O)c2ccc(Cl)cc2C1=O	MTT / absorbance	1.222 µM
Cc1cc(-c2ccc(C#N)cc2)cc(C)c1Oc1nc(Nc2ccc(C#N)cc2)nc2ccsc12	MTT	223.8 µM
O=C(NCCCN1CCN(CCCNC(=O)c2cc3cc(O)c(O)cc3[nH]2)CC1)c1cc2cc(O)c(O)cc2[nH]1	MTT	176 µM
C[C@H](NC(=O)[C@H](Cc1ccc2ccccc2c1)NC(=O)[C@H](CCCN=C(N)N)NC(=O)[C@@H](N)CCCN=C(N)N)C(=O)N[C@@H](Cc1ccc(O)cc1)C(=O)N[C@@H](CCCN=C(N)N)C(=O)O	MTT	>100 µM
Cc1cn([C@H]2C[C@H](N=[N+]=[N-])[C@@H](CO)O2)c(=O)[nH]c1=O	-	4.6 µM
Cc1cc(NC(=S)Cc2ccc3ccccc3c2)ccc1N1C(=O)c2ccc(Cl)cc2C1=O	MTT / absorbance	0.415 µM
N#Cc1ccc(Nc2nc(Oc3ccc(-c4ccc(C#N)cc4)cc3C#N)c3sccc3n2)cc1	MTT	>265.9 µM
Cc1cn([C@H]2CC[C@H](CO)O2)c(=O)[nH]c1=O	-	>1000 µM
CCCCCCCCCCc1ccc2c(c1)N(C)[C@@H](C(C)C)C(=O)NC(CO)C2	-	5–10 µg/mL
N#Cc1ccc(Nc2nc(Oc3ccc(-c4ccc(C#N)cc4)cc3F)c3sccc3n2)cc1	MTT	>269.9 µM
Cc1cn([C@H]2C[C@H](N=[N+]=[N-])[C@@H](CO)O2)c(=O)[nH]c1=O	MTT	240 µM
O=C(CN1CCN(c2ccc([N+](=O)[O-])cc2)CC1)OC[C@@H]1CC[C@H](n2cnc3c(=O)[nH]cnc32)O1	MTT	>1000 µM
CC(C)CN(C[C@@H](O)[C@H](Cc1ccccc1)NC(=O)O[C@H]1CO[C@H]2OCC[C@H]21)S(=O)(=O)c1ccc(C(N)=O)cc1	-	>100 µM
CC(C)[C@H]1C(=O)N[C@H](CO)Cc2ccccc2N1C	-	1.3 µg/mL
CCCCN(C)C(=O)Oc1nsnc1-c1c(Cl)cccc1Cl	-	23 µM
C[C@H](NC(=O)[C@H](Cc1ccc2ccccc2c1)NC(=O)[C@H](CCCN=C(N)N)NC(=O)[C@@H](N)CCCN=C(N)N)C(=O)N[C@@H](Cc1ccc(O)cc1)C(=O)O	MTT	>100 µM

Repeating the first 7 entries:

structure,read by,result
Cc1cc(NC(=O)c2ccc(Cl)cc2)ccc1N1C(=O)c2ccc(Cl)cc2C1=O,MTT / absorbance,0.256 µM
CCC1(c2ccccc2)Oc2ccccc2-n2cccc2C1=O,-,3.3 µM
Nc1nc(Cl)nc2c1ncn2[C@@H]1C[C@@H](F)[C@H](CO)O1,-,>10 µM
Cc1cn([C@H]2C[C@H](N=[N+]=[N-])[C@@H](CO)O2)c(=O)[nH]c1=O,MTT / absorbance,>100 µM
COc1cc2c(c(OC)c1CC=C(C)C)C[C@H](c1ccc(O)cc1O)CO2,-,>10 µg/mL
O=C(NCCCCCCNC(=O)c1cc2cc(O)c(O)cc2[nH]1)c1cc2cc(O)c(O)cc2[nH]1,MTT,171 µM
CN(C)C(=O)Oc1nsnc1-c1ccc(Cl)cc1,-,353 µM

Blank or dashed fields: not listed here. Conditions beyond the fields shown may differ between rows. a–b is a range or a potency band.